In article PMC7954794, “Protein context shapes the specificity of SH3 domain-mediated interactions in vivo” (Nature Communications, 2021):
Some results come without the dose or concentration used.

B1: YFL010C (protein, UniProt P43582 1-211, looked up)
WW domain-containing protein …: MAQSKSNPPQVPSGWKAVFDDEYQTWYYVDLSTNSSQWEPPRGTTWPRPKGPPPGVNNEKSSRQQADQAPPPYSSQSTPQVQAGAQAQQPRYYQPQQPQYPQYPQQQRYYPQQAPMPAAAPQQAYYGTAPSTSKGSGHGGAMMGGLLGVGAGLLGGAMLEHAFDDHNYDGPDTVVVENNYYGDDAGGSDGGFDDAGGFDGGFDDGFDGSDF
B2: YFR040W (protein, UniProt P43612 1-1002, looked up)
SIT4-associating protein …: MSFWPFGQNLNHSNINKILDEYFHVLHELERINPSVGKAIPAIFNNVQERGTSDSLDSIPEEYSHGDEVKTARGDQKSRFEKDDQQERYEKEEEERSMNSSESSTTSFSSGSTSKTDLDEEDISNATAPMMVTTKNLDNSFIERMLVETELLNELSRQNKTLLDFICFGFFFDKKTNKKVNNMEYLVDQLMECISKIKTATTVDLNNLIDYQEQQQLDDSSQEDVYVESDTEQEEEKEDDNNSNNKKRRKRGSSSFGNDDINNNDDDDDANEDDESAYLTKATIISEIFSLDIWLISESLVKNQSYLNKIWSIINQPNFNSENSPLVPIFLKINQNLLLTRQDQYLNFIRTERSFVDDMLKHVDISLLMDFFLKIISTDKIESPTGIIELVYDQNLISKCLSFLNNKESPADIQACVGDFLKALIAISANAPLDDISIGPNSLTRQLASPESIAKLVDIMINQRGAALNTTVSIVIELIRKNNSDYDQVNLLTTTIKTHPPSNRDPIYLGYLLRKFSNHLSDFFQIILDIENDANIPLHENQLHEKFKPLGFERFKVVELIAELLHCSNMGLMNSKRAERIARRRDKVRSQLSHHLQDALNDLSIEEKEQLKTKHSPTRDTDHDLKNNNGKIDNDNNDNDDESDYGDEIDESFEIPYINMKQNIKLRTDPTVGDLFKIKLYDTRIVSKIMELFLTHPWNNFWHNVIFDIIQQIFNGRMDFSYNSFLVLSLFNLKSSYQFMTDIVISDEKGTDVSRFSPVIRDPNFDFKITTDFILRGYQDSYKFYELRKMNLGYMGHIVLIAEEVVKFSKLYKVELISPDIQVILQTEEWQYYSEEVLNETRMMYSKILGGGSYIDDGNGNIIPQLPDNTTVLTPNGDASNNNEILDSDTGSSNGTSGGGQLINVESLEEQLSLSTESDLHNKLREMLINRAQEDVDNKNTENGVFILGPPEDKNSNSNINNTNHNSNNSNNNDNNDNNDNDNDNTRNYNEDADNDNDYDHE
B3: YGL252C (protein, UniProt P32608 1-588, looked up)
Retrograde regulation protein …: MSTLSDSDTETEVVSRNLCGIVDIGSNGIRFSISSKAAHHARIMPCVFKDRVGLSLYEVQYNTHTNAKCPIPRDIIKEVCSAMKRFKLICDDFGVPETSVRVIATEATRDAINADEFVNAVYGSTGWKVEILGQEDETRVGIYGVVSSFNTVRGLYLDVAGGSTQLSWVISSHGEVKQSSKPVSLPYGAGTLLRRMRTDDNRALFYEIKEAYKDAIEKIGIPQEMIDDAKKEGGFDLWTRGGGLRGMGHLLLYQSEGYPIQTIINGYACTYEEFSSMSDYLFLKQKIPGSSKEHKIFKVSDRRALQLPAVGLFMSAVFEAIPQIKAVHFSEGGVREGSLYSLLPKEIRAQDPLLIASRPYAPLLTEKYLYLLRTSIPQEDIPEIVNERIAPALCNLAFVHASYPKELQPTAALHVATRGIIAGCHGLSHRARALIGIALCSRWGGNIPESEEKYSQELEQVVLREGDKAEALRIVWWTKYIGTIMYVICGVHPGGNIRDNVFDFHVSKRSEVETSLKELIIDDANTTKVKEESTRKNRGYEVVVRISKDDLKTSASVRSRIITLQKKVRKLSRGSVERVKIGVQFYEE
B4: YGR037C (protein, UniProt P31787 1-87, looked up)
Acyl-CoA-binding protein: MVSQLFEEKAKAVNELPTKPSTDELLELYALYKQATVGDNDKEKPGIFNMKDRYKWEAWENLKGKSQEDAEKEYIALVDQLIAKYSS
B5: YDL146W (protein, UniProt Q12342 1-491, looked up)
Protein LDB17: MILDPLSPNIENHTQDEIIEFWEKTESIANIPKENLDESHVNSSLVAYLKFATDSYKVFINTDRDLYRMSLILLESSLFEFKKEFCLSKLQSLLNIDLLEMNMKFIIVYILLCEAKKNVYSLEIMLKFQGFTVFYNTLYTQFAYLSKYGKERTVASKHQYNSNNSSTGTSLDSLDRSLTDIDLGIIDEMKQISTVLMDLLFQIMKYCKCVIANLQIVDDFFVYYMMESMRSDTMDDMFNNAEFKLLLALNEQYMMFAKEYDIENKVYKYLINGSVSRCFTELLLLKFNRASDPPLQIMMCKIIYLILTPRGDYSPMNFFYTNDLRVLIDVLIRELQNISEDEEVLRNTLLRVLIPLLKNTQLSKTHYRKDDLNKLLNYLSTLDNICVDSPALHEHQVTVALSRKCLQQIPWLETPSTPSDGGSSVSSNNTSRNSSIVALGTPDNQNILARKGHLYSNRELDVSAESLTKRKAKAPPPPPPPPPSRKCGTPK
B6: YIR003W (protein, UniProt P40563 1-679, looked up)
Altered inheritance of …: MPSEVTPKVPERPSRRKTSELFPLSGSESGDIKANSEPPTPAGTPNVPTRRPILKAKTMTSFESGMDQESLPKVPLQRPVRRSTTEELNNVMNNTSKELEEIESLISKHNIHNVSRKKSPTSVEEGKVAAIHQNGQRSASDNKTSTNPSPLEKNEHEGAEGNESAISPSNLVNKSNNEVTEHSDSEDLTEKQKVHAALDNEAGDRSHFEEKLIPGDMKVQVDVSKDVEEGSLNALPPSGITESDDKAEKFTKHPESSLEELQKHQEQQEEKIFQNPTDEESTTSLNEKQEGKDNMEVNSQPQGPSDTETVIAATSSNVPSQIASEEENDVPVIPRSRPKKDFEAHVQKEELPNTQEKRVSEECDSTLISTEEESKIPKIPSERPKRRAPPPVPKKPSSRIAAFQEMLQKQQQQDLHNNGNSSATTASADIAKKHTDSSITSDTTKADFTSKLNGLFALPGMVNPGQLPPSLEKKLSSPDTESKLGPQDQSQAKTGPLGGTRRGRGPRGRKLPSKVASVEKIEEDDNTNKIEIFNNWNVSSSFSKEKVLIDTTPGEQAERALDEKSKSIPEEQREQSPNKMEAALCPFELDEKEKLPANAESDPLSQLPQTNAVGNRKAISEESLSPSEAIANRDQNDTTEIQEQQMEDQMEVDMERELSGGYEDVDSALHSEEASFHSL
B7: YIR006C (protein, UniProt P32521 1-1480, looked up)
Actin cytoskeleton-regulatory …: MYNPYQQQGMGYQQQQQQQQQQPNGFYPQQQQGQSSNQPQGQPQPQQQMAFNQPQATGIGGMPQSFGNSFSSMPQQPQTGYNNNGNNGSVYGNGNFGQQPQQQQQQAKPQHTGYVPNSSMPMMNTTGTMPPPNPAQQPQLQSIQPQGTGYYQAANTANVHSVQPLQSQGTGYYVSTPNLISSNQTQQPLQAQGTGYYQSQPQQVPPPQQAQSLQPLKPQQTGFYLQPQNQAPLEPLKPTATGFVNSFANNGLNNDIKIPAIRLSFITAQDQAKFETLFRSIVTNGSNTVSGANCRKILMRSGLPPSQLARIWTLCDTSKAGELLFPEFALAMHLINDVLQGDTIPYELDSKTKNEVSSFIDAINLSIANQDSSANDAPKTPFDEFITAGVQNLQPQPTGYMPQTSFGIPLQSQITGGGVASALNPQSTGFMAPTTFNMSMNTGTPGLNPQITGGAPASMQPNITGNALQPQTTGMMPQTTGMMPQTTGMMPQTSFGVNLGPQLTGGALQSQYTGGYGSVMPQQSGPASMPNLSFNQQGLQSQLTGLQPQPTGFLPPSNFSATMPLTAQKTGFGNNEIYTKSNFNNNLIDNSSQDKISTEEKSLFYKIFETFDTQNKGLLDSPTAVEIFRKSGLNRADLEQIWNLCDINNTGQLNKQEFALGMHLVYGKLNGKPIPNVLPSSLIPSSTKLLDNLKNQLKTEPTTTKEKPSFGKIDALSYKNNDDDVLPNYRNRRKVYSAKNEEQSSFSSPSAKSVNHSSSTLQTDDISVDKTVEKKTAKPKYAGFSREINLKNIASLENEIKNISNPENCYDSSIPSDLTSRFDAIIAKLPNLFNEISTIDNEITNAKIQLYRKKNPSSIIGSGPNGEITENDRKKAKSRALLRARMSALTGKSTESEDSLSMEDEQQSAEIKRIQQENGKNQEIIKDIRSSISDISASLKSTMTGSNMISNQEFERWEFGIGLEDGVREFLDDLKSNSNKSVTESSPFVPSSTPTPVDDRSSSPSYSQFKTAEERAAYLKEQAKKRMKEKLAKFDKNRRNVTQSSRSISSENSREQPQQIAGSSNLVEPRATPFQEEKYVEVAQPTQPVQSTQPVQPTQPVQPTQPVQPTQPVQPTQPVQPTQPVQNVYNAKQESDDEDEDDEEKRLQEELKRLKLKKKADKEKRLAALRKQIEDAQNESDEEETNGKDNFGGHVNVPQAAPVAPSAAFSQNSTNAPRSVHAAVTPAAGKNSTGLPSTTMGHNPYFKDASASSTSTFDARAAEMQRRIQRGLDEDEDDGWSDEDESNNRVAVDNKVEEAKIGHPDHARAPPVTAAPLPSVTPVPPAVPVPQANTSNEKSSPIPIAPIPPSVTQEPPVPLAPPLPAVDGFQEPPIPSAPAIATAVQKSGSSTPALAGGVLPPPPPLPTQQASTSEPIIAHVDNYNGAEKGTGAYGSDSDDDVLSIPESVGTDEEEEGAQPVSTAGIPSIPPAGIPPPPPLP
B8: YHR114W (protein, UniProt P38822 1-633, looked up)
Protein BZZ1: MSADLSIGNEIKDSFKETHKWVQNNLKWLKDIEQFYRERAKLEKDYSERLSRLSAEYFNKKSSTSVPISVGDTPTTTPGSIEAAGVVAWNEILSQTDMISKDHDQLSTDFENHVANQLSGLFTKLDMTLSKINGFNNDMVNKKDNIYHELEKAKKDYDEACSTMEMARNRYTKASNDRNKKKLDEKEMEMNKCKNEYLIKINQANRTKDKYYFQDVPEVLDLLQDVNEAKTLFLNDLWLKAASVENDLGANVSKRLQAANSVVKQNKPSLNTAIFIKHNLKNWKEPQDFVYKPSPVWHDDEKFAVPSSLEVEDLRIKLAKAENDYNSLQDKTQNELSKLSTLNKIKHEMKTNEDNINATKFYDTLKEYLNVVSPFTSHETLKLQAEVQIESIQNNVPEEYDLSTDNIDLSKTKKKSGIFSKFKHNILNVDSKPSSGGSTGNGNGGPLHITSLFNTSRRTRLGSAPNNAGEDSDNNSIRTTSTNNTKKTTQNSSDDGKNKVLYAYVQKDDDEITITPGDKISLVARDTGSGWTKINNDTTGETGLVPTTYIRISSAATVKANDRGPAPEVPPPRRSTLPVRTMEAIYAYEAQGDDEISIDPGDIITVIRGDDGSGWTYGECDGLKGLFPTSYCK
B9: YIL095W (protein, UniProt P40494 1-810, looked up)
Actin-regulating kinase PRK1: MNTPQISLYEPGTILTVGSHHAKIIKYLTSGGFAQVYTAEISPPDPYSNANIACLKRVIVPHKQGLNTLRAEVDAMKLLRNNKHVVSYIDSHAARSVNGIAYEVFVLMEFCERGGLIDFMNTRLQNRLQESEILEIMSQTVQGITAMHALQPPLIHRDIKIENVLISHDGLYKVCDFGSVSGVIRPPRNTQEFNYVQHDILTNTTAQYRSPEMIDLYRGLPIDEKSDIWALGVFLYKICYYTTPFEKSGEAGILHARYQYPSFPQYSDRLKNLIRLMLMEAPSQRPNICQVLEEVSRLQNKPCPIRNFYLLRAMNQNANTQLAGEPSSTTYVPTQKFIPVQSLQSINQPPNMMPVTHVSTTPNLGTFPISINDNNKTEVTAHAGLQVGSHSNLTSPLMKTKSVPLSDEFASLYYKELHPFQKSQTFKSVESFQSPQRKSMPPLSLTPVNNDIFDRVSAINRPNNYVDSETQTIDNMAVPNLKLSPTITSKSLSSTKEIAAPDNINGSKIVRSLSSKLKKVITGESRGNSPIKSRQNTGDSIRSAFGKLRHGFTGNSVNNSRSASFDNNNVNGNGNNTNRRLVSSSTSSFPKFNSDTKRKEESDKNQRLEKRRSMPPSILSDFDQHERNNSRTGSRDYYRSHSPVKKTQASAKTTSKPTLIPDNGNVNINQEKKESIQRRVHNLLKSSDDPVTYKSASGYGKYTDIGTETSNRHSSVRITPITEEKFKKTLKDGVLDIKTKSNGKDKSRPPRPPPKPLHLRTEIQKIRNFSRLQSKKLPIERISSEATETIVDVNVDDLEADFRKRFPSKV

tested on: ABP1; assay: DHFR-PCA on solid medium, bait ABP1 (Fig. 1B); assay type: cell-based, Saccharomyces cerevisiae; design: key: 0: SH3-independent; 1: SH3-dependent PPIs; 2: SH3-inhibited PPIs; settings: bait ABP1, label = prey
Description: Supplement 41467_2021_21873_MOESM8_ESM.xlsx, sheet "Fig1B" | column: medsize; medrep; Ratio; Score

Row | Molecule | Score
1 | B1 | 0
2 | B2 | 0
3 | B3 | 0
4 | B4 | 0
5 | B5 | 0
6 | B6 | 0
7 | B7 | 0
8 | B8 | 0
9 | B9 | 0
